Bounds are passed on as bounds.

This experiment has as its system Botrytis cinerea. Put plainly: Fungicidal activity against Botryotinia fuckeliana inoculated on compound pre-treated one-leaf stage cucumber seedlings assessed as prevention of leaf lesions measured 3 days after inoculation.

`[N-]=[N+]=Nc1c(C(F)(F)F)cc([N+](=O)[O-])c(Nc2ncc(C(F)(F)F)cc2Cl)c1[N+](=O)[O-]`: the minimum inhibitory concentration (MIC) is greater than 500 mg/L.

By MIC is commonly meant the smallest concentration in the dilution series that meets the test's criterion for growth inhibition.

For the origin of these results see ChEMBL document CHEMBL3044862, “Quantitative Structure-Activity Relationships of Fluazinam and Related Fungicidal N-Phenylpyridinamines” (1995).
